From paper PMC12607321, “Sumac Polyphenols as Pan-Herpesvirus Inhibitors” (International Journal of Molecular Sciences, 2025)
Where two headings read alike, the source gives them in different places.

Assays:
[1] = test system: HSV-1L2; assay: Antiviral activity in Vero E6 cells infected with HSV-1 (cytopathic effect); type: cell-based
[2] = test system: HSV-2BH; assay: Antiviral activity in Vero E6 cells infected with HSV-2 (cytopathic effect); type: cell-based
[3] = test system: HIV-1 (HIVIIIB); type: cell-based; conditions: CC50/IC50, HIV-1 in MT-4 cells
[4] = test system: EBVB95-8; assay: Inhibition of EBV replication in B95-8 cells (EBV genomic DNA, real-time PCR); type: cell-based, Epstein–Barr virus
[5] = test system: influenza A virus/California/07/2009 (H1N1) pdm; type: cell-based
[6] = test system: SARS-CoV-2 (HCoV-19/Russia/Moscow-PMVL-12/2020, EPI_ SL_572398); type: cell-based; conditions: CC50/IC50, SARS-CoV-2 in Vero E6 cells

| Compound | SI ([1]; HSV-1L2, CC50/IC50) | SI ([2]; HSV-2BH, CC50/IC50) | SI ([5]; CC50/IC50, IAV in MDCK cells) | other results |
| --- | --- | --- | --- | --- |
| 2,4-bis-O-galloyl-1,3,6-tri-O-galloyl-β-D-glucose [R7] | 28 | 20 |  |  |
| Cc1cn([C@H]2C[C@H](N=[N+]=[N-])[C@@H](CO)O2)c(=O)[nH]c1=O [Azidothymidine, reference compound] |  |  |  | SI [3]: 1800 |
| O=C(O)P(=O)(O)O [Foscarnet, reference compound] | >8 | >16 |  |  |
| Nc1nc(O)c2ncn(COC(CO)CO)c2n1 [Ganciclovir, reference compound] |  |  |  | SI, Inhibition on EBV Replication ([4]; CC50/IC50): >10 |
| O=C1O[C@H]2C3OC(=O)c4cc(O)c(O)c(O)c4-c4c(cc(O)c(O)c4O)C(=O)OC[C@H]2O[C@@H](OC(=O)c2cc(O)c(O)c(O)c2)[C@@H]3OC(=O)c2cc(O)c(O)c3c2[C@@H]2C1=CC(=O)[C@](O)(O3)C2(O)O [Geraniin, (1R,7R,26R,28S,29R,38R)-1,13,14,15,18,19,20,34,35,39,39-Undecahydroxy-2,5,10,23,31-pentaoxo-6,9,24,27,30,40-hexaoxaoctacyclo [34.3.1.0~4,38~.0~7,26~.0~8,29~.0~11,16~.0~17, 22~.0~32,37~]tetraconta-3,11,1 3,15,17,19,21,32,34,36-decaen-28-yl 3,4,5-trihydroxybenzoate] | 55 | 169 | 26 | SI [6]: 12.6; SI [3]: 25.6 |
| CC(C)(C)[C@H](NC(=O)C(F)(F)F)C(=O)N1C[C@H]2[C@@H]([C@H]1C(=O)N[C@H](C#N)C[C@@H]1CCNC1=O)C2(C)C [Nirmatrelvir, reference compound] |  |  |  | SI [6]: >200 |
| CCOC(=O)C1=C[C@@H](OC(CC)CC)[C@H](NC(C)=O)[C@@H](N)C1 [Oseltamivir, reference compound] |  |  | >500 |  |
| O=C(OC[C@H]1O[C@@H](OC(=O)c2cc(O)c(O)c(O)c2)[C@H](OC(=O)c2cc(O)c(O)c(O)c2)[C@@H](OC(=O)c2cc(O)c(O)c(O)c2)[C@@H]1OC(=O)c1cc(O)c(O)c(O)c1)c1cc(O)c(O)c(O)c1 [R5, 1,2,3,4,6-penta-O-galloyl-β-D-glucose] |  |  |  | SI ([5]; ratio CC50 / IC50): 9.8; SI [1]: 15; SI [2]: 15; SI, Inhibition on EBV Replication [4]: <8.5 |
| O=C(OC[C@H]1O[C@@H](OC(=O)c2cc(O)c(O)c(O)c2)[C@H](OC(=O)c2cc(O)c(O)c(O)c2)[C@@H](OC(=O)c2cc(O)c(O)c(OC(=O)c3cc(O)c(O)c(O)c3)c2)[C@@H]1OC(=O)c1cc(O)c(O)c(O)c1)c1cc(O)c(O)c(O)c1 [R6, 3-bis-O-galloyl-1,2,4,6-tetra-O-galloyl-β-D-glucose] | 3 | 2 | <2 |  |
| O=C(OC[C@H]1O[C@@H](OC(=O)c2cc(O)c(O)c(O)c2)[C@H](OC(=O)c2cc(O)c(O)c(OC(=O)c3cc(O)c(O)c(O)c3)c2)[C@@H](OC(=O)c2cc(O)c(O)c(OC(=O)c3cc(O)c(O)c(O)c3)c2)[C@@H]1OC(=O)c1cc(O)c(O)c(OC(=O)c2cc(O)c(O)c(O)c2)c1)c1cc(O)c(O)c(O)c1 [R8, 2,3,4-bis-O-galloyl-1,6-di-O-galloyl-β-D-glucose] | 11 | 3 | 291.3 |  |
